Target: SARS-CoV-2 MPRO (Severe acute respiratory syndrome coronavirus 2 (2019-nCoV) (SARS-CoV-2), UniProt P0DTD1)
Test: SARS-CoV-2 Mpro enzymatic assay (FRET substrate cleavage)
Format: biochemical
Settings: read-out: M pro IC50; C-His6-tagged SARS-CoV-2 MPRO 25 nM, 30 min pre-incubation at RT, 60 min at 30° C., 10 doses from 25 μM

SMILES	IC50 [µM]
C[C@](C(=O)NC1CCC2(CCC2)CC1)(c1cncnc1)N(C(=O)[C@H](F)Cl)c1ccc(OC(F)(F)F)cc1 (single isomer, unassigned)	< 0.1
C[C@@](C(=O)NC1CCC2(CCC2)CC1)(c1cncnc1)N(C(=O)[C@H](F)Cl)c1ccc(OC(F)(F)F)cc1 (single isomer, unassigned)	> 10
